For assay [1], the target named is T1, recombinant ectodomain of Gc (rGc) from Hantaan virus strain 76-118 (Hantaan virus strain 76-118, N-linked glycan at Asn280).
Assay [2] deals with T1, recombinant ectodomain of Gc (rGc) from …. The source holds these as a separate data set.

Several values for one entry are separate records, joined by “and”; a condition that tells them apart may be missing. Equal values may be shown once.

The values below come from PMC5082683 (2016).

For orientation: Kd means the constant that tells how readily two partners part at equilibrium. The term koff denotes a measure of how fast the partners let go of each other.

B1: scFv A5 (scFv, V domains shown)
VH: QVQLQESGPGLVKPSETLSLTCVVSGGSISSSNWWSWVRQPPGKGLEWIGEIYHSGSPNYNPSLKSRVTISVDKSKNQFSLKLSSVTAADTAVYYCARQMRQWGQGTLVTVSS
VL: SSELTQDPAVSVALGQTVRITCQGDSLRSYYASWYQQKPGQAPVLVIYGKNNRPSGIPDRFSGSSSGNTASLTITGAQAEDEADYYCNSRDSSGNHNVFGGGTKLTVL
Regarding B1, the Kd in assay [1] is 6.4 µM and 1.11 µM. For the same molecule, the dissociation rate constant (koff) in assay [2] was 0.123 s⁻¹ and 0.0194 s⁻¹.
